Laboratory results from article PMC6721932, “Cross-reactivity of a rice NLR immune receptor to distinct effectors from the rice blast pathogen Magnaporthe oryzae provides partial disease resistance” (The Journal of Biological Chemistry, 2019).

Molecular target: T1, Pikp–HMA (integrated heavy metal-associated domain of the rice NLR Pikp-1, residues 186–263) (rice (Oryza sativa), UniProt E9KPB5 186-263)
T1 sequence: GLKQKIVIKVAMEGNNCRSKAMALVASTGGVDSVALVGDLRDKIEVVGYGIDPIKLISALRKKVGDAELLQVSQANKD
Experiment: SEC
Settings: both partners purified

B1: AVR–Pia (residues 20–85), tags removed (natural protein)
chain: APARFCVYYDGHLPATRVLLMYVRIGTTATITARGHEFEVEAKDQNCKVILTNGKQAPDWLAAEPY
binding result: binds
